Laboratory results reported in paper PMC5722320.

Target: PsrA (UniProt Q9HZJ9)
Test: EMSA
Settings: 0-50 ng PsrA; recombinant protein; protein details: 6xHis (Fig 3C: PsrA-his tag); label: 32P; probe letters rebuilt from the primers and the genome

“GAAACGGATATCACGCAAGGGGGCCTTGTAATCAGGCATAGCAGTCAACCTCTACGAAGGGTTCTGGTTAATCGGCGACCGGACGGATGTCCAGAGTCTGCGGTCGCAGTGCGGGATCGCTCCCGGTCGCCTTGCCGGACGCACTCATGCGTCCCGGCTCTCAAACAGGCGTTTGAAACATACGTTTACGCCAATCCCTTGTCAAGCATCCGAACCGACCGCTCGGTCATGCCCGAAATCACTGGCAGCCACGTCCTTCCAAAGCACTTTCGTCTCTCTCAGTAAAGCCCATGGCGAAGCGCCCGGCAGGCTTCAGGGGCCGCCGGGTGACAGTCGGAAAAGGAAGGGTC (double strand) [PA0506 promoter fragment (349 bp)]”: binds.

Construct, isoform or probe ends are uncertain for at least one entry.
